Measured values taken from the NIST ThermoML archive (doi:10.1016/j.jct.2018.04.005).

Columns and labels:
[1] = xn = mol fraction of the nth substance listed; conditions: 100 kPa, Liquid, Vibrating tube method
[2] = 100 kPa, Liquid, Vibrating tube method

CCCCOP(=O)(OCCCC)OCCCC [tributyl phosphate] + CCCCn1cc[n+](C)c1.F[P-](F)(F)(F)(F)F
mass density [kg/m3], [1]
Conditions | x2 = 0 | x2 = 0.0943 | x2 = 0.1898 | x2 = 0.2866 | x2 = 0.3845 | x2 = 0.4838 | x2 = 0.5843 | x2 = 0.6862 | x2 = 0.7894 | x2 = 0.894
293.15 K | 976.92 | 1008.07 | 1040.16 | 1073.81 | 1109.17 | 1146.37 | 1185.43 | 1227.12 | 1271.78 | 1319.74
298.15 K | – | 1003.9 | 1036.19 | 1069.75 | 1105.29 | 1142.27 | 1181.27 | 1223.12 | 1267.68 | 1315.73
303.15 K | 968.59 | 999.76 | 1032.32 | 1065.81 | 1101.31 | 1138.1 | 1177.16 | 1218.81 | 1263.41 | 1311.14
308.15 K | – | 995.49 | 1028.3 | 1062.11 | 1097.75 | 1134.52 | 1174.02 | 1216.07 | 1261.02 | 1308.69
313.15 K | – | 991.31 | 1024.36 | 1058.14 | 1093.87 | 1130.69 | 1170.3 | 1212.26 | 1257.36 | 1304.77
318.15 K | – | 987.58 | 1020.97 | 1054.82 | 1090.64 | 1127.5 | 1167 | 1208.99 | 1253.95 | 1301.47
323.15 K | 951.94 | 983.55 | 1016.95 | 1050.96 | 1086.64 | 1123.66 | 1162.96 | 1205.06 | 1250.04 | 1297.49

CCCCOP(=O)(OCCCC)OCCCC [tributyl phosphate]
[2]
Conditions | mass density [kg/m3]
293.15 K | 976.92
298.15 K | 972.79
303.15 K | 968.59
308.15 K | 964.16
313.15 K | 959.93
318.15 K | 956.18
323.15 K | 951.94
